Results of unrelated studies side by side (data: NIAID ChemDB).

Shared fields: toxicity to cultured cells; cell line: MT-4; read-out: CC50

CCn is the concentration with n% toxicity to the cells. Conditions beyond the fields shown may differ between rows.

structure | result
Cc1cc(C)cc(Cc2cc(=O)[nH]c(OCC(C)C)n2)c1 | 104 µM
CC(C)=CCc1c(O)cc(O)c2c1O[C@H](c1cc3c(cc1O)O[C@@H](c1ccc(O)cc1)[C@@H]3c1cc(O)cc(O)c1)CC2=O | 66 µg/mL
CCNC(=O)[C@@H](NC(=O)Cc1ccccc1)[C@@H]1N[C@@H](C(=O)NCCNC(=O)[C@@H]2N[C@@H]([C@H](NC(=O)Cc3ccccc3)C(=O)NCC)SC2(C)C)C(C)(C)S1 | >100 µM
CC(C)Nc1cccnc1N1CCN(C(=O)c2ccc(-c3ccc(N)cc3)[nH]2)CC1 | 27 µM
O=C1CSC(c2cccnc2)N1Cc1ccco1 | 339 µM
C1CNCCNCCCN[C@H]([C@@H]2CNCCCNCCNCCCN2)CNC1 | 319 µM
Cc1cn([C@H]2C[C@H](N=[N+]=[N-])[C@@H](CO)O2)c(=O)[nH]c1=O | >100 µM
CCCCCCCCCCCCCC(=O)O[C@@H]1Cc2ccccc2[C@@H]1NC(=O)[C@H](Cc1ccccc1)C[C@H](O)CN1CCN(Cc2cccnc2)C[C@H]1C(=O)NC(C)(C)C | >0.01 µM
COc1ccc([C@@H]2CC(=O)c3c(O)cc(O)cc3O2)cc1O | >200 µg/mL
C[C@@H]1[C@H](O)[C@@H](CO)O[C@H]1n1cnc2c(=O)[nH]c(N)nc21 | >100 µM
CCc1c(Cc2ccccc2)nc(OC)[nH]c1=O | 323 µM
CC(C)Nc1cccnc1N1CCN(C(=O)c2c[nH]c(-c3ccc(NS(C)(=O)=O)cc3)c2)CC1 | 24 µM
CCCCCCCCCCCCCC(=O)O[C@@H](C[C@@H](Cc1ccccc1)C(=O)N[C@H]1c2ccccc2C[C@H]1OC(=O)CCCCCCCCCCCCC)CN1CCN(Cc2cccnc2)C[C@H]1C(=O)NC(C)(C)C | >0.01 µM
O=c1[nH]cnc2c1ncn2C[C@@H](CO)OCP(=O)(O)O | >125 µM
CCNC(=O)c1cnnn1C1OC(CO[Si](C)(C)C(C)(C)C)C2(OS(=O)(=O)C=C2N)C1O[Si](C)(C)C(C)(C)C | ≥250 µM
CSc1ccc2c(C)nc(CCCCCCC(=O)c3ccccc3)n2n1 | 27 µM
CC(C)(C)OC(=O)N[C@@H](Cc1ccccc1)[C@@H](O)C[C@@H](Cc1ccc(OCC(=O)O)cc1)C(=O)N[C@H]1c2ccccc2C[C@H]1O | >200 µM
Cc1cccc(Cc2cc(=O)[nH]c(=O)[nH]2)c1 | >463 µM
CC(=O)Oc1ccc2cc(Br)ccc2c1Cc1c[nH]c2ccccc12 | 19 µM
Cc1ccc(CN2C(=O)CSC2c2c(F)cccc2Cl)o1 | 46.9 µM
COc1nc(Cc2cc(C)cc(C)c2)c(C)c(=O)[nH]1 | >387 µM
O=C1CSC(c2c(F)cccc2F)N1Cc1ccco1 | 208 µM
CCCCOc1nc(Cc2ccccc2)c(C)c(=O)[nH]1 | 146 µM
Cc1cn([C@H]2C[C@H](N=[N+]=[N-])[C@@H](CO)O2)c(=O)[nH]c1=O | 100 µM
C=CCN1Cc2cccc3[nH]c(=O)n(c23)C[C@H]1C | 592 µM
COc1c(CC=C(C)C)cc(C2CC(=O)c3c(O)cc(O)cc3O2)c(CC=C(C)C)c1O | 11 µg/mL
CCC(C)Oc1nc(Cc2cccc(C)c2)cc(=O)[nH]1 | >367 µM
O=C1C[C@@H](c2ccc(O)cc2)Oc2cc(O)cc(O)c21 | >200 µg/mL
CC(C)(C)OC(=O)N[C@@H](Cc1ccccc1)[C@@H](O)C[C@@H](Cc1ccc(OCc2nn[nH]n2)cc1)C(=O)N[C@H]1c2ccccc2C[C@H]1O | >200 µM
CC1(C)S[C@@H]2[C@H](NC(=O)Cc3ccccc3)C(=O)N2[C@H]1C(=O)NCCNC(=O)[C@@H]1N2C(=O)[C@@H](NC(=O)Cc3ccccc3)[C@H]2SC1(C)C | >100 µM
Nc1ncnc2c1ncn2CCOCP(=O)(O)O | 67 µM
COc1ccc2c(Cc3c(C)[nH]c4ccccc34)c(OC(C)=O)ccc2c1 | 18 µM
CC1(C)OC2=C(CC3C=C(c4cc(O)cc(O)c4)OC3=C2)CC1O | 12 µg/mL
Cc1cn([C@H]2C[C@H](N=[N+]=[N-])[C@@H](CO)O2)c(=O)[nH]c1=O | >0.01 µM
C1CNCCNCCCN(CCCC2CNCCCNCCNCCCN2)CCNC1 | >445 µM
COc1c(C)c2c(c(O)c1C/C=C(\C)CCC(=O)O)C(=O)OC2 | 0.2 µM
Nc1ncc2ncn(CCOCP(=O)(O)O)c2n1 | >1250 µM
Cc1cc(C)cc(Cc2cc(=O)[nH]c(OC3CCCC3)n2)c1 | >335 µM
Cc1c(Cc2ccccc2)[nH]c(=O)[nH]c1=O | >1000 µM
COCCOCCOCCOCCOCCOCCOCCOC(=O)CCC(=O)O[C@@H]1Cc2ccccc2[C@@H]1NC(=O)[C@H](Cc1ccccc1)C[C@H](O)CN1CCN(Cc2cccnc2)C[C@H]1C(=O)NC(C)(C)C | >0.1 µM
Nc1nc2c(ncn2CCOCP(=O)(O)O)c(=O)[nH]1 | 11 µM
CC(C)Nc1cccnc1N1CCN(C(=O)c2c[nH]c(-c3ccc(N)cc3)c2)CC1 | >200 µM
Nc1ncnc2c1ncn2[C@@H]1CC(CO)(CO)CS1 | >100 µg/mL
CC1(C)CCc2c(cc(O)c3c(=O)c4c(oc23)-c2ccc(O)cc2OC(C(C)(C)O)C4)O1 | 20 µg/mL
CC(C)=CCC/C(C)=C/Cc1c(O)cc2c(c1O)C(=O)C[C@@H](c1c(O)cc(O)cc1O)O2 | 113 µg/mL
CC(C)=CCN1Cc2cccc3[nH]c(=S)n(c23)C[C@@H]1C | >870 µM
Cc1cccc(N2C(=O)CSC2c2cccnc2)n1 | 343 µM
COc1cc(O)ccc1CCCc1cc(O)c2c(c1CC=C(C)C)C=CC(C)(C)O2 | 10 µg/mL
O=C1CSC2(CCCCC2)N1c1ccccn1 | 502 µM
Cc1cc(C)cc(Cc2nc(OC3CCCCC3)[nH]c(=O)c2C)c1 | >307 µM
O=C1CSC(c2ccnc3ccccc23)N1c1ccccn1 | 33.93 µM
Cc1cc(C)cc(Sc2c(C(C)C)c(=O)[nH]c(=S)n2COCCO)c1 | 52 µM
CCC(C)Oc1nc(Cc2ccccc2)cc(=O)[nH]1 | 344 µM
Cc1cn([C@H]2C[C@H](N=[N+]=[N-])[C@@H](CO)O2)c(=O)[nH]c1=O | 2.1 µg/mL
Cc1cn([C@H]2CC[C@@H](CO)O2)c(=O)[nH]c1=O | >500 µM
Cc1nc(CCCCCCC(=O)c2ccccc2)n2nc(Cl)ccc12 | 25 µM
CCc1c(Cc2ccccc2)nc(OC(C)C)[nH]c1=O | 193 µM
CC(C)=CCC(Cc1c(O)cc(O)c2c1O[C@H](c1ccc(O)cc1O)CC2=O)C(=O)O | 23 µg/mL
CCCOc1nc(Cc2ccccc2)c(C)c(=O)[nH]1 | 244 µM
CC(=O)Nc1ccn([C@H]2CS[C@@H](COC(=O)P(=O)(O)O)O2)c(=O)n1 | 100 µM
CCc1cc(NCc2nc3c(Cl)ccc(Cl)c3o2)c(=O)[nH]c1C | >10 µM
O=C1CSC(c2c(Cl)cccc2Cl)N1C1CCCCC1 | 5.25 µM
CCOC(=O)COc1ccc(C[C@H](C[C@H](O)[C@H](Cc2ccccc2)NC(=O)OC(C)(C)C)C(=O)N[C@H]2c3ccccc3C[C@H]2O)cc1 | 117 µM
CC(=O)Oc1ccc2ccccc2c1Cc1c(-c2ccccc2)[nH]c2ccccc12 | 19 µM
CC(C)Nc1cccnc1N1CCN(C(=O)c2ccc(-c3ccccc3N)[nH]2)CC1 | 72 µM
C1CNCCNCCCNCCNC1 | 1248 µM
Cc1nc(CCCCCC(=O)Cc2ccccc2)n2nc(Cl)ccc12 | 28 µM
Cc1cn([C@H]2C[C@H](N=[N+]=[N-])[C@@H](CO)O2)c(=O)[nH]c1=O | >75 µM
Cc1cn([C@H]2C[C@H](N=[N+]=[N-])[C@@H](CO)O2)c(=O)[nH]c1=O | 280.5 µM
Nc1ncnc2c1ncn2C[C@@H](CO)OCP(=O)(O)O | 52 µM
Cc1cn([C@@H]2O[C@H](CO[Si](C)(C)C(C)(C)C)[C@@]3(OS(=O)(=O)C=C3N)[C@H]2O[Si](C)(C)C(C)(C)C)c(=O)[nH]c1=O | 14 µM
CC(C)Nc1cccnc1N1CCN(C(=O)c2c[nH]c(-c3cccc(NS(C)(=O)=O)c3)c2)CC1 | 35 µM
CC(C)=CCN1Cc2cc(Cl)cc3[nH]c(=S)n(c23)C[C@@H]1C | 31 µM
CCN(C)C(=O)c1cnnn1C1OC(CO[Si](C)(C)C(C)(C)C)C2(OS(=O)(=O)C=C2N)C1O[Si](C)(C)C(C)(C)C | 88 µM
Cc1cn([C@H]2C[C@H](N=[N+]=[N-])[C@@H](CO)O2)c(=O)[nH]c1=O | >20 µM
CCOP(=O)(CC(=O)OC[C@H]1O[C@@H](n2ccc(N)nc2=O)CS1)OCC | 500 µM
CC(C)C(N)C(=O)O[C@H](CN1C[C@H]2CCCC[C@H]2C[C@H]1C(=O)NC(C)(C)C)[C@H](Cc1ccccc1)NC(=O)[C@H](CC(N)=O)NC(=O)c1ccc2ccccc2n1 | >0.01 µM
CCC(C)Oc1nc(Cc2cc(C)cc(C)c2)c(C)c(=O)[nH]1 | >333 µM
C=CCN1Cc2cccc3[nH]c(=O)n(c23)CC1C | 612 µM
Nc1ncnc2c1ncn2[C@H]1CC[C@@H](CO)O1 | >100 µM
O=C(CP(=O)(O)O)Nc1ccn([C@H]2CS[C@@H](CO)O2)c(=O)n1 | 1000 µM
CC(C)(C)[Si](C)(C)OCC1OC(n2nncc2C(=O)NC2CC2)C(O[Si](C)(C)C(C)(C)C)C12OS(=O)(=O)C=C2N | 168 µM
Cc1cn([C@H]2C[C@H](N=[N+]=[N-])[C@@H](CO)O2)c(=O)[nH]c1=O | >100 µM
CC(=O)Oc1ccc(/C=C/C(=O)O[C@@H](C(=O)O)[C@@H](OC(=O)/C=C/c2ccc(OC(C)=O)c(OC(C)=O)c2)C(=O)O)cc1OC(C)=O | 47.1 µM

A second listing of 6 rows from above:

structure | result
Cc1cccc(Cc2cc(=O)[nH]c(=O)[nH]2)c1 | >463 µM
CCCCOc1nc(Cc2ccccc2)c(C)c(=O)[nH]1 | 146 µM
O=C1CSC(c2ccnc3ccccc23)N1c1ccccn1 | 33.93 µM
CC(C)Nc1cccnc1N1CCN(C(=O)c2c[nH]c(-c3ccc(N)cc3)c2)CC1 | >200 µM
O=C1CSC(c2c(F)cccc2F)N1Cc1ccco1 | 208 µM
COc1cc(O)ccc1CCCc1cc(O)c2c(c1CC=C(C)C)C=CC(C)(C)O2 | 10 µg/mL